## Results of single-concentration screens

Source: ChEMBL document CHEMBL3988442, “University of Dundee, Small-Polar-MMV Screening Library” (2021).

Mtb cholesterol medium: 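Phenotypic screen: M. tuberculosis growth, cholesterol and DPPC medium, 4 days; the read-out is not stated. Tested at 500 µM. Higher reads as more growth inhibition (inferred: compounds with an IC50 in retests scored well above the rest). Of about 18,000 compounds tested this way, about 900 (5%) reached 50% or more in at least one test.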
Mtb glucose medium: 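Growth of Mycobacterium tuberculosis over 3 days (7H9 medium with glucose and tyloxapol); the read-out is not stated. Tested at 500 µM. The record gives no direction; compounds that gave an IC50 in retests scored well above the rest, so higher reads as more growth inhibition. Size under these conditions: about 18,000 compounds, about 1,400 of them at 50% or above in at least one test.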

The filed quantity is “Percent Effect” (%).
The controls that fix the scale are not given in the record; negative values are as filed.
The entries come from a sample that favours strong results.
A dash means the value is not listed here; it may have been measured.

| # | SMILES | Mtb cholesterol medium | Mtb glucose medium |
|---|---|---|---|
| 1 | `COC(=O)c1ccc(NCC(=O)NC(N)=O)cc1` | 91.23 | 83.3 |
| 2 | `COC(C)C(=O)NCCNc1cccc(Br)c1` (centres unmarked) | -18.6 | -18.59 |
| 3 | `CCOc1ccc(Cn2cc(Br)ccc2=O)nc1` | 29.6 | 32.72 |
| 4 | `NCCn1ccccc1=O` | - | 13.08 |
| 5 | `O=C(CNCC1CC1)Nc1ccccc1` | - | 50.25 |
| 6 | `CCOCCC(=O)N1C[C@H](C(C)C)[C@@H](N)C1` | - | 7.648 |
| 7 | `CCOCCN(C)Cc1cccnc1C` | - | 1.698 |
| 8 | `CC(C)NC(=O)C(C)NC(=O)C1CCC1` (centres unmarked) | - | 6.718 |
| 9 | `CCc1noc(C)c1C(=O)NCCCN1CCOCC1` | -1.139 | - |
| 10 | `O=C(C1CCCOC1)N1CCCc2c(F)cccc21` (centres unmarked) | - | 49.48 |
| 11 | `CC(C)c1n[nH]c(C(=O)NCCN2CCOCC2)c1Br` | 3.607 | - |
| 12 | `CCCNc1nc2c(c(=O)n(C)c(=O)n2C)n1CC` | 4.706 | - |
| 13 | `CNc1ccc(OCCN2CCCC2)cc1` | 25.54 | - |
| 14 | `COc1cc(NCC2(N(C)C)CCSC2)ncn1` (centres unmarked) | 2.668 | - |
| 15 | `C[S+]([O-])c1nncn1CCCOc1cccc(Cl)c1` (centres unmarked) | - | 62.4 |
| 16 | `CC(C)Oc1cc(CN)ccn1` | 20.67 | - |
| 17 | `Cc1cc(C)n(CC(=O)N(C)C2CCCC2)n1` | - | 12.17 |
| 18 | `COCCN1CCC(CC(=O)N2CCN(C)CC2)CC1` | - | -18.98 |
| 19 | `O=C(CSc1ncccn1)Nc1ccc2c(c1)OCO2` | - | 9.892 |
| 20 | `CN(C)C(=O)Cn1ncc2ccccc21` | -5.767 | - |
| 21 | `CCS(=O)(=O)CCNC(=O)c1cc(CC(C)C)on1` | - | -12.34 |
| 22 | `O=C(CCn1cccc1)N1CCn2nc(CO)cc2C1` | - | 0.06253 |
| 23 | `Cc1cccnc1CN(C)Cc1nccn1C` | - | 32.99 |
| 24 | `Cc1ccc(NC(=O)CN2CCCC2=O)nc1` | - | 9.348 |
| 25 | `COc1ccc(C(=O)C2CCCN2)cc1` (centres unmarked) | - | 39.13 |
| 26 | `NCC(O)c1ccc(-c2ccccc2)cc1` (centres unmarked) | 71.37 | 75.26 |
| 27 | `CN(C)S(=O)(=O)c1cccc(Cn2cccn2)c1` | - | 31.41 |
| 28 | `NCc1ccnc(O)c1` | -22.12 | - |
| 29 | `CSc1ccc(OCCn2cnnc2[S+](C)[O-])cc1` (centres unmarked) | - | 26.35 |
| 30 | `CNc1cccnc1CN` | - | 0.9683 |
| 31 | `COCCN1CCCN(C(=O)c2cc(Cl)c[nH]2)CC1` | 63.51 | 63.83 |
| 32 | `Cc1cc(C)c(CNC(=O)N(C)C)c(=O)[nH]1` | 7.881 | - |
| 33 | `CSc1cccc(CN(C)C(=O)CNC2CC2)c1` | 47.63 | 77.28 |
| 34 | `COc1ncccc1C(=O)NCCn1ccnc1` | -11.1 | -6.495 |
| 35 | `Cc1cc(NC(C)CN2CCOCC2)ncc1Br` (centres unmarked) | - | 54.82 |
| 36 | `CN(Cc1cnn(C)c1)C(=O)C1CCCN(C(N)=O)C1` (centres unmarked) | - | 8.624 |
| 37 | `NC(=O)C1CNCCN1C1CC1` (centres unmarked) | - | -2.593 |
| 38 | `CN(Cc1ccncc1)S(=O)(=O)c1ccc(C#N)cc1` | - | 38.72 |
| 39 | `Cn1cncc1CCN` | - | 2.588 |
| 40 | `COc1ccc2cc(S(=O)(=O)N(C)C)ccc2c1` | - | 2.65 |
| 41 | `COCc1nn(CC(O)c2cccc(F)c2)c(=O)o1` (centres unmarked) | -8.111 | 9.227 |
| 42 | `CC(C)(C)OC(=O)N1CCN(C(CN)C(F)(F)F)CC1` (centres unmarked) | - | 30.47 |
| 43 | `CCc1nnc(CNC(=O)c2nnc(C(C)C)s2)o1` | 14.71 | - |
| 44 | `CN(C)[C@H]1CN(C(=O)Nc2ccccc2F)C[C@@H]1O` | 1.804 | - |
| 45 | `COCCN(C(=O)c1ccn(C)c(=O)c1)C1CCCC1` | - | 7.11 |
| 46 | `COCCC(C)Nc1c[nH]nc1-c1ccccn1` (centres unmarked) | - | 53.59 |
| 47 | `COC(C(=O)NCc1ccncn1)c1ccccc1` (centres unmarked) | - | 0.05608 |
| 48 | `CNC1CCCNC1=O` (centres unmarked) | - | -0.8677 |
| 49 | `CCCS(=O)(=O)NCc1cc[nH]n1` | - | 2.111 |
| 50 | `C=Cc1ccc(OC)nc1` | - | 8.023 |
| 51 | `CC(C)Cc1cc(C(=O)N(C)Cc2cnccn2)on1` | 55.9 | 58.48 |
| 52 | `CN(Cc1cc(Cl)cn1C)C(=O)c1cnn(C)c1` | - | -1.258 |
| 53 | `COCC1CCN(C(=O)Nc2ccc(F)c(OC)c2)C1` (centres unmarked) | 16.56 | - |
| 54 | `O=C(NC1CCCN(C2CCCC2)C1)c1cnc[nH]1` (centres unmarked) | - | -2.436 |
| 55 | `NC(=O)CO[C@H]1CCOC[C@H]1NC(=O)c1ccc(Cl)o1` | -14.75 | - |
| 56 | `CN(C)c1ccc(-c2[nH][nH]c(=O)c2CCN)cc1` | - | 31.04 |
| 57 | `NC[C@@H]1OC[C@@H]2COCC[C@@H]21` | -19.91 | - |
| 58 | `CCC(NC(=O)c1ccc(CO)o1)c1nc(C)c[nH]1` (centres unmarked) | - | 2.842 |
| 59 | `CCO[C@H]1CN(C)C[C@@H]1NC(=O)c1ccc(O)c(C)c1` | - | 0.979 |
| 60 | `CC(NC(=O)c1ccc(Cl)c(I)c1)C(=O)N(C)C` (centres unmarked) | 34.38 | 50.43 |
| 61 | `CC(C)C(=O)NCCNCc1cccc(C#N)c1` | - | -3.846 |
| 62 | `CN(C)c1ccc(CNS(C)(=O)=O)cc1` | - | 8.789 |
| 63 | `CCNC(C)(C)C(=O)N(C)Cc1ccc(OC)c(F)c1` | -17.13 | -2.571 |
| 64 | `Cc1ccccc1CSCC(N)=O` | 17.14 | - |
| 65 | `O=C(NC1CC1)c1cccc(CNc2ccccn2)c1` | 50.34 | 62.27 |
| 66 | `Cc1ccc(C(N)c2ccccn2)cc1` (centres unmarked) | - | 51.83 |
| 67 | `O=C(COc1ncccn1)Nc1ccc(F)cc1F` | 81.44 | - |
| 68 | `CCN(C)S(=O)(=O)N(CC)CC(O)c1ccc(C)cc1` (centres unmarked) | 61.23 | 72.48 |
| 69 | `Cc1cnn(CCNc2ccc(F)cn2)c1` | 46.06 | 53.28 |
| 70 | `Cc1cccc(OCCNC(=O)CN(C)CC(N)=O)c1` | 1.316 | 20.56 |
| 71 | `Cc1nnc(SCC(=O)NCC(C)C)s1` | 11.78 | 16.04 |
| 72 | `Nc1n[nH]c(SCC(=O)N2CCc3sccc3C2)n1` | - | 23.58 |
| 73 | `Cc1cccc(C(=O)N2CCN(S(N)(=O)=O)CC2)c1` | - | 14.85 |
| 74 | `CC(C)[C@H]1CN(c2nccc(N)n2)C[C@@H]1N` | - | 13.09 |
| 75 | `Cc1csc(CNC(=O)c2ccco2)n1` | - | 51.96 |

For reference, 6 entries once more:

| SMILES | Mtb cholesterol medium | Mtb glucose medium |
|---|---|---|
| `Cc1cccc(C(=O)N2CCN(S(N)(=O)=O)CC2)c1` | - | 14.85 |
| `COCCN1CCC(CC(=O)N2CCN(C)CC2)CC1` | - | -18.98 |
| `CN(C)S(=O)(=O)c1cccc(Cn2cccn2)c1` | - | 31.41 |
| `O=C(NC1CCCN(C2CCCC2)C1)c1cnc[nH]1` (centres unmarked) | - | -2.436 |
| `Cn1cncc1CCN` | - | 2.588 |
| `CCO[C@H]1CN(C)C[C@@H]1NC(=O)c1ccc(O)c(C)c1` | - | 0.979 |